Assay [1] has as its target SARS-CoV-2 spike (S) protein, Omicron BA.2 + R493Q (SARS-CoV-2) (UniProt P0DTC2). Description: cell-based or functional assay.
Assay [2] deals with SARS-CoV-2 spike (S) protein, Omicron BA.2.75 (SARS-CoV-2) (UniProt P0DTC2). The experiment in a line: cell-based or functional assay.

Experimental findings from patent publication US20250154231A1 are described below.

Take Omi-42 (antibody): the pseudovirus neutralisation IC50 in assay [1] came out at 6 ng/mL.
Regarding Omi-29 (antibody), in assay [1], the pseudovirus neutralisation IC50 worked out at 42 ng/mL.
Consider Omi-18 (antibody), for which, in assay [1], the pseudovirus neutralisation IC50 worked out at 4 ng/mL.
In turn, AZD7442 registered a fold reduction of neutralising activity compared to BA.2 in assay [2] of 2 fold.
For the substance Omi-03 (antibody), the pseudovirus neutralisation IC50 in assay [1] is 2 ng/mL.
The same measure, in the same setting: in the case of Omi-12 (antibody) it was 1 ng/mL.
